Data as given in US20120219500A1, “DIAGNOSTIC AGENT FOR INFECTIOUS DISEASES” (FUJIFILM RI PHARMA CO., LTD., priority 2009, published 2012).

System: each bacterium
Experiment: uptake by the method of Example 2 with metronidazole added
Details: metronidazole added to achieve 1.5 mM before incubation at 37° C.

Row | SMILES | reduction of the rate of uptake by added metronidazole
1 | O=C(NCCn1ccnc1[N+](=O)[O-])c1cccc(I)c1 [Compound 2, N1-[2-(2-nitro-1H-1-imidazolyl)ethyl]-3-iodobenzamide] | 42%
2 | Cc1ncc([N+](=O)[O-])n1CCNC(=O)c1cccc(I)c1 [Compound 1, [^125I]N1-[2-(2-methyl-5-nitro-1H-1-imidazolyl)ethyl]-3-iodobenzamide] | 71%
